Assay results: the supplement of paper PMC9931576
Human monoclonal antibodies against the spike receptor-binding domain (heavy:light variable regions). IC50 against pseudoviruses bearing the spike of naturally observed variants; lower = stronger; >10 µg/ml means not reached at the top dose. No active / inactive call. The stated detection limit is 0.0005 µg/ml; values near or below 0.001 µg/ml lie at the floor of the assay.

B1: BD55-5908 (protein)
chain 1: QVQLVQSGAEVKKPGSSVKVSCKASGGTFYNYAINWVRQAPGQGLEWMGRIIPTLGIPNYAQKFQGRVTITADKSTSTAYMELSSLRSEDTAVFYCATSTYESSYASSAYPLDHWGQGTLVTVSS
chain 2: DIQMTQSPSSLSASVGDRVTITCRASQSISNYLNWYQQKPGKAPKLLIYAASDLQSGVPSRFSGSGSGTDFTLTISSLQPEDFATYYCQQTYSPPRTFGQGTKVEIK
B2: BD55-5923 (protein)
chain 1: EVQLVESGGGLVQPGGSLRLSCAASGITVSSNYMSWVRQAPGKGLEWVSVIYSGGSTFYADSVRGRFTISRDNSKNTLYLQMNSLRVEDTAVYYCARVQRDEAWGQGTLVTVSS
chain 2: DIQMTQSPSSLSAFVGDRVTITCQASQDIRNYLNWYQQKPGKAPKILIHDASNLETGVPSRFSGSGSGTHFTLTIRSLQPEDIATYYCQQSDNLPYTFGQGTKLEIK
B3: BD55-5909 (protein)
chain 1: QVQLVQSGAEVKKPGSSVKVSCKASGGTFSTYAISWVRQAPGQGLEWMGRIIPMIGIPNYAQKFQGRVTITADKSTSTAYMELRSLRSEDTAVYYCAKDEGEYQLLYSYFDPWGQGTLVTVSS
chain 2: EIVMTQSPATLSVSPGERATLSCRASQFVSSNLAWYQQKPGQAPRLLIYGASTRATGIPARFSGSGSGTEFTLTISSLQSEDFAVYYCQQYNNWPPFGWTFGQGTKVEIK
B4: BD55-5927 (protein)
chain 1: EVRLVESGGGLVQPGRSLRLSCAASGFIFDDYSMHWVRQAPGKGLEWVSSINWNSGRIDYADSVKGRFTISRDNAKNSLFLQMIRLRPEDTALYYCAKPLSSGWTFSGTTDDAFEIWGQGTMVTVSS
chain 2: QSALTQPPSVSGSPGQSVTISCTGTSSDVGSFHRVSWYQQPPGTAPKLMIYEVNNRPSGVPDRFSGSKSGNTASLTISGLQAEDEADYYCSSYTITNTWVFGGGTKVTVL
B5: BD55-5931 (protein)
chain 1: EVQLVESGGGLVKPGGSLRLSCAASGFTFSHYGMNWVRQAPGKGLEWVSSISSSGSHIFYADSVEGRFTISRDNAKNSLYLQMNRLTVEDTSVFYCARCPGLGYCSPSSPLGDSWGRGTLVTVSS
chain 2: QSVLTQPPSVSGAPGQRVTISCTGSSSNIGAGYDVHWYQQLPGAAPRLLIYGNSDRPSGVPDRFSGSKSGTSASLAITGLQSEDEADYYCQSYDSSLSGPYVFGTGTKVTVL
B6: BD55-5885 (protein)
chain 1: EVQLVESGGGLVQPGGSLRLSCVASGFTFSSYWMSWVRQAPGKGLEWVANMKQDGSEKYYGDSVKGRFTISRDNAKNSLYLQLNSLGAEDTAVYYCARDPGLSVRGGDCYFDYWGQGTLVTVSS
chain 2: SYELTQPPSVSVSPGQTARITCSGDTFPNQYAYWYQQKPGQAPVLVIYKDSERPSGIPERFSGSSSGTTVTLTISGVQAEDEADYYCQSADSSGANVVFGGGTKLTVL
B7: BD55-5887 (protein)
chain 1: QVQLVQSGAEVKKPGASVKVSCKASGYTSTSYYMNWVRQAPGQGLEWMGIINPSRGSTSYAHKFQGRVTMTRDSSTSTVYMELSSLRSEDTAVYYCATFGGLMLKGSVFDLWGQGTMVTVSS
chain 2: DIVMTQSPDSLAVSLGERATINCKSSQSVLYNSNNKNYLAWYQQKPGHPPKLLIYWASTRESGVPDRFSGSGSGTDFTLTISSLQAEDVAVYYCQQYSTTLPTFGQGTKLEIK
B8: BD55-1114 (protein)
chain 1: EVQLVQSGAEMKKPGESLTISCKGSGYSFTNYGIAWVRQMPGKGLEWMGISHPGDSDATYSPSFQGQVTISADNSINTAYLQWSSLKDSDTAMYYCARTGIPQYKDILTGFRWDFDYWGQGTLVTVSS
chain 2: EIVLTQSPATLSLSPGERATLSCRASQSFSNYLAWYQQKPGQAPRLLIYDASSRATGIPPRFSGSGSGTDFTLTISSLEPEDFAIYYCQQRTNWSPGTFGQGTKVEIK
B9: BD55-5889 (protein)
chain 1: EVQLVESGGGLVQPGGSLRLSCAASGFTFSRYWMSWVRQAPGKGLEWVANIKRDGSEEIYVDSVKGRFTISRDNAQNSLYLLMNSLRAEDTAVYFCARAPVSYNILTPEYFDSWGQGTLVTVSS
chain 2: SNELTQPPSVSVSPGQTARITCSGDTLPTQYTYWYQQKPGQAPVLVIYKDSERPSWIPERFSGSSSGTTGTLTISGVQAEDEADYYCQSADSISWVFGRGTKLTVL
B10: BD55-5897 (protein)
chain 1: EVHLVASGGGLIRPGGSLRLSCAASGFTVSSNYFSWVRQAPGKGLEWVSVIYPGGTTQYADSVKGRFTISRDNSKNTLYLQMNSLRADDTAVYYCARDLGSYLDYWGQGTLVTVSS
chain 2: EIVLTQSPATLSVSPGERATLSCRTSQNIDNNLAWYQQKPGQAPRLLISGASTRATGVPARFSGSGSGTEFTLTISGLQSEDFAVYYCQQYNDWPSRPFGQGTKVEIK
B11: BD55-5902 (protein)
chain 1: EVQLVQSGAEVKKPGESLKISCKGSGYSFPYYWIGWVRQMPGKGLEWMGIMYPGDSDIRYSPSFQGQVTISADKSISTAYLQWSSLKASDTAMYYCVNTLLRRALVGSTGWAFDIWGQGTMVTVSS
chain 2: QSVLTQPPSASGTPGQRVTISCSGSSSNIGSNTVNWYQQLPGTAPKLLIYSNNQWPSGVADRFSGSKSGTSASLAISGLQSEDEADYYCATWDDSLNGLVFGGGTKLTVL
B12: BD55-5907 (protein)
chain 1: QVQLVESGGGVVQPGRSLRLSCAASGFTFSNYGMHWVRQAPGKGLEWVALISYDGSNKYYADSVRGRFTVSRDNSKNTLYLQMNTLRVDDTGIYYCVIAVADHYYFYDGVDVWGQGTAVTVSS
chain 2: DIVMTQSPLSLPVTPGEPASISCRSSQSLLHTNGFDYLDWYVQKPGHSPQLLIYLGSNRASGVPDRFSGSGSGTDFTLKISRVEAEDVGIYYCMQALQTPITFGQGTRLEIK

How the values were obtained:
Assay in all cases: pseudovirus neutralization IC50; higher = weaker neutralization
[1] = molecular target: SARS-CoV-2 Omicron BA.1 spike pseudovirus
Method: (§1)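 Single-round VSV luciferase pseudovirus mixed with antibody dilutions for 1 h and put on Huh-7 cells for about a day; IC50 from the dose curve.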

[2] = molecular target: SARS-CoV-2 Omicron BA.2 spike pseudovirus
Method: as §1

[3] = molecular target: SARS-CoV-2 Omicron BA.2.75 spike pseudovirus
Method: as §1

[4] = molecular target: SARS-CoV-2 Omicron BA.5 spike pseudovirus
Method: as §1

[5] = molecular target: SARS-CoV-2 Omicron BQ.1.1 spike pseudovirus
Method: as §1

[6] = molecular target: SARS-CoV-2 Omicron XBB spike pseudovirus
Method: as §1

[7] = molecular target: SARS-CoV-2 early D614G spike pseudovirus
Method: as §1

Binder | pseudovirus neutralization IC50 [1] [µg/mL] | pseudovirus neutralization IC50 [2] [µg/mL] | pseudovirus neutralization IC50 [3] [µg/mL] | pseudovirus neutralization IC50 [4] [µg/mL] | pseudovirus neutralization IC50 [5] [µg/mL] | pseudovirus neutralization IC50 [6] [µg/mL] | pseudovirus neutralization IC50 [7] [µg/mL]
B1 | > 10 | > 10 | > 10 | > 10 | > 10 | > 10 | 0.00206
B2 | > 10 | > 10 | > 10 | > 10 | > 10 | > 10 | 0.03
B3 | > 10 | > 10 | > 10 | > 10 | > 10 | > 10 | 0.108
B4 | > 10 | > 10 | > 10 | > 10 | > 10 | > 10 | 0.244
B5 | > 10 | > 10 | > 10 | > 10 | > 10 | > 10 | > 10
B6 | > 10 | > 10 | > 10 | > 10 | > 10 | > 10 | > 10
B7 | 0.42 | 0.258 | 0.063 | > 10 | > 10 | > 10 | 0.00103
B8 | 0.151 | 0.19 | 0.171 | 0.312 | > 10 | > 10 | 0.001
B9 | > 10 | > 10 | > 10 | > 10 | > 10 | > 10 | 1.72
B10 | 1.85 | 1.52 | > 10 | > 10 | > 10 | > 10 | 0.041
B11 | > 10 | > 10 | > 10 | > 10 | > 10 | > 10 | 0.285
B12 | > 10 | > 10 | > 10 | > 10 | > 10 | > 10 | > 10
